A mixed list of measured activities; the numbers were collected in NIAID ChemDB.

Common to all: growth or infection tests; agent: Respiratory syncytial virus; cell line: HeLa; read-out: EC50

ECn: concentration that inhibits the pathogen or its effect by n%. Lines come from different laboratories, so protocols vary. An empty or dashed field is not shown.

compound	strain or isolate	method	result
CC=NC(=N)c1nc(-c2cccc(OC)c2)n(Cc2ccccc2)n1	LONG	cytopathic effect	14 µg/mL
CC1(C)[C@@H](CO)CC[C@@]1(C)Cn1ccc(=O)[nH]c1=O		cytopathic effect	>400 µg/mL
Cc1cccc2c1CSSC2	LONG	cytopathic effect	11.9 µM
CC1(C)[C@@H](CO)CC[C@@]1(C)Cn1cnc2c(Cl)ncnc21		cytopathic effect	>400 µg/mL
Cc1ccc(O)c(Cn2c(NCCCN3CCN(C)CC3)nc3ccccc32)n1		cytopathic effect	0.316 µM
CC=NC(=N)c1nc(-c2ccc(OC)cc2)n(COCCO)n1	LONG	cytopathic effect	100 µg/mL
CCOC(=O)/C=C/C=C/[C@H]1O[C@@H](n2ccc(=O)[nH]c2=O)[C@H](O)[C@@H]1O			≥200 µM
CC1(C)[C@@H](CO)CC[C@@]1(C)Cn1cnc2c(N)ncnc21		cytopathic effect	>400 µg/mL
Cc1cc(C)c2nc(NCCCn3ccnc3)n(Cc3nc(C)ccc3O)c2c1		cytopathic effect	0.501 µM
CC=NC(=N)c1nc(-c2cccc(C)c2)n(Cc2ccccc2)n1	LONG	cytopathic effect	>20 µg/mL
Cc1ccc(O)c(Cn2c(NCCCN3CCCC3=O)nc3ccccc32)n1		cytopathic effect	12.6 µM
c1ccc2c(c1)CSSC2	LONG (A)	cytopathic effect	4.5 µM
Cc1ccc(O)c(Cn2c(NCCOCCO)nc3ccccc32)n1		cytopathic effect	79.43 µM
O=C(NC1CC1)c1cc2c(s1)-c1ccccc1N(C(=O)c1ccc(NC(=O)c3ccccc3-c3ccccc3)cc1)CC2	Clinical isolate FM58-8 (A)	plaque count	0.38 µM
Cc1ccc(O)c(Cn2c(NCCc3cc4ccccc4[nH]3)nc3ccccc32)n1		cytopathic effect	100 µM
Clc1ccc2c(c1)CSSC2	LONG	cytopathic effect	7.9 µM
Cc1cc(C)c2nc(NCCN3CCCC3)n(Cc3nc(C)ccc3O)c2c1		cytopathic effect	0.02 µM
CC=NC(=N)c1nc(-c2ccc(C)cc2)n(C/C=C/c2ccccc2)n1	LONG	cytopathic effect	>20 µg/mL

Repeating the final 2 entries:

compound,strain or isolate,method,result
Cc1cc(C)c2nc(NCCN3CCCC3)n(Cc3nc(C)ccc3O)c2c1,,cytopathic effect,0.02 µM
CC=NC(=N)c1nc(-c2ccc(C)cc2)n(C/C=C/c2ccccc2)n1,LONG,cytopathic effect,>20 µg/mL